Consider 2 compounds from PMC5834442, “Identifying inhibitors of the Leishmania inositol phosphorylceramide synthase with antiprotozoal activity using a yeast-based assay and ultra-high throughput screening platform” (Scientific Reports, 2018).

Amino acid sequences for entries named in this document (tags omitted). A change or cut given only in a name is not applied to a line headed by its entry.
UniProt E9AFX2: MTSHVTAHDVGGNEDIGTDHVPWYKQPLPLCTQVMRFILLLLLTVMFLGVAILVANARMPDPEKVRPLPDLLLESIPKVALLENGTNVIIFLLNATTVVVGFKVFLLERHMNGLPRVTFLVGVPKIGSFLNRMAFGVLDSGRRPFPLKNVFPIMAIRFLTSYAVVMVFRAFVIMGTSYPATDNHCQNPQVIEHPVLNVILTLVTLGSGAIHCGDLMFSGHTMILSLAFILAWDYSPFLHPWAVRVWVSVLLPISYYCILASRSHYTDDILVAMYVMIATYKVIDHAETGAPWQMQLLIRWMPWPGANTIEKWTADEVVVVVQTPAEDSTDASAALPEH
UniProt P36107: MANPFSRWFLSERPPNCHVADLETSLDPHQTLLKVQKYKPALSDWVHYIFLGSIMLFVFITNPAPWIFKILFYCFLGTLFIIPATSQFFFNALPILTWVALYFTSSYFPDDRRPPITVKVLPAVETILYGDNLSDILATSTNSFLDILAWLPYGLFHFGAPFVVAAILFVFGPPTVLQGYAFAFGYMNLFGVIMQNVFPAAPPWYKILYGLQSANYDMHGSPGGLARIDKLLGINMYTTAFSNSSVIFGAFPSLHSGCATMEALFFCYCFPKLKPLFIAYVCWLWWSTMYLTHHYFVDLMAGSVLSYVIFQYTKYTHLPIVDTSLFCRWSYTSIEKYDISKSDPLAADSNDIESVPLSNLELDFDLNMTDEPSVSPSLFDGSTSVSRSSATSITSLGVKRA

The target of test [1] is L. major IPC synthase (LmjFIPCS) (Leishmania major, UniProt E9AFX2). The conditions noted are these: -logIC50 mol against yeast α ade−.lys−.leu−.Δaur1−.pESC-LEU_LmjIPCS.
The next test has as its target AUR1p (Saccharomyces cerevisiae, UniProt P36107). The conditions noted are these: -logIC50 mol against yeast α ade−.lys−.leu−.Δaur1−.pESC-LEU_AUR1.
Test [2] relates to L. donovani (MHOM/SD/62/1S-CL2D, LdBOB) axenic amastigotes. Nature of the test: Leishmania donovani axenic amastigote dose response assay (resazurin). The conditions noted are these: -logIC50 mol against L. donovani (LdBOB) axenic amastigotes. The test is classed as cell-based. On the technique in general: Alamar Blue is a resazurin reagent that responds to reducing activity.
The next test has as its system HepG2 cells. Briefly: Mammalian cell cytotoxicity assay (CellTiter-Glo). The class given is cell-based, human. The conditions noted are these: for PIC50 HepG2: -logIC50 mol against HepG2; for pSI v HepG2: selectivity: pIC50 axenic minus pIC50 HepG2.
Another test concerns THP-1 macrophages. Briefly: Host cell toxicity in the intramacrophage assay. The class given is cell-based, human.
Test [3] relates to intra-macrophage Leishmania donovani amastigotes. Nature of the test: Intramacrophage Leishmania donovani assay (high content imaging). The test is classed as cell-based. The conditions noted are these: intramacrophage L. donovani.

Take `CC1=C[C@H]2O[C@@H]3C[C@H]4OC(=O)C=CCC=C5OCC[C@@]6(O[C@@H]6C(=O)OC[C@@]2(CC1)[C@]4(C)[C@@]31CO1)[C@@H]5O`: the “pIC50 LmjIPCS” value in test [1] is given as 7.27. Besides, the “pIC50 AUR1” value against AUR1p came out at 4.92. In addition, in test [2], the “pIC50 Axenic” value was 8.33. Further, in the test on HepG2 cells, the “PIC50 HepG2” value is 7.64 and the “pSI v HepG2” value was 0.69.
In the case of `CC1=C[C@H]2O[C@@H]3C[C@H]4OC(=O)C=CC=CC(C(C)O)OCCC(C)C(O)C(=O)OC[C@@]2(CC1)[C@]4(C)[C@]31CO1` (stereo partly shown), the “pIC50 LmjIPCS” value in test [1] is on record as 6.75. For the same compound, the “pIC50 THP-1” value with THP-1 macrophages (THP-1 host cells in intramacrophage assay) is 8.58. For the same compound, the “pSI v THP-1” value with THP-1 macrophages (selectivity: pIC50 InMac minus pIC50 THP-1) was found to be 0.13. Further, the “pIC50 InMac” value in test [3] is 8.71. Also, the “pIC50 AUR1” value on AUR1p was 5.26. The “pIC50 Axenic” value in test [2] came to 8.49. For the same compound, in the test with HepG2 cells, the “PIC50 HepG2” value was determined as 7.41 and the “pSI v HepG2” value came to 1.08.
